{"source": "patent US20230313299A1", "about": "“METHOD FOR DIAGNOSIS AND/OR PROGNOSIS OF LIVER DISEASE PROGRESSION AND RISK OF HEPATOCELLULAR CARCINOMA AND DISCOVERY OF THERAPEUTIC COMPOUNDS AND TARGETS TO TREAT LIVER DISEASE AND CANCER” (UNIVERSITÉ DE STRASBOURG, priority 2020, published 2023)", "system": "H3K27ac", "assay": "H3K27ac ChIPmentation-based ChIP-Seq with RNA-Seq of NASH and CHC patient liver tissue (Table S3)", "design": "species or system human", "settings": "CHC (HCV) patients liver tissue; negative changes indicate good prognosis genes, positive changes poor prognosis genes"}
{"substance": "DAB1", "values": [{"measurement": "Epigenetic (H3K27ac) log2FC, HCV", "result": "−0.5361"}]}
